Results of unrelated studies side by side (data: NIAID ChemDB).

Common to all: tests in culture; agent: Mycobacterium tuberculosis

A number after MIC or MFC names an inhibition level or a share of isolates. Blank or dashed fields: not listed here. Inhibition is in % at the dose shown (toxicity tests: loss of growth or viability). MIC bound: limit read from a one-dose screen. a–b is a range or a potency band. Rows are shuffled and stem from different studies.

smiles,strain,read by,endpoint,cells,dose,value
COc1cc2c(cc1OC)C1CC(=O)C(CCCCCCC3CN4CCc5cc(OC)c(OC)cc5C4CC3=O)CN1CC2,H37Rv,BACTEC,MIC,-,-,≥12.5 µg/mL
CCC(CO)NC[C@@H]1O[C@H](CO)[C@@H](O)[C@@H]1O,H37Ra,-,MIC,-,-,>128 µg/mL
O=C(c1ccc(Sc2ccccc2)cc1)C(Br)Br,H37Rv,-,MIC,-,-,25 µg/mL
CC(C)c1cc2c(c(O)c1O)[C@@]13C[C@@H](O)CC(C)(C)[C@@H]1C[C@@H]2OC3=O,H37Rv (ATCC 27294),-,MIC,-,-,>650 µM
CC(C)[C@H]1CO[C@]23CC[C@H](N(Cc4ccc(C(F)(F)F)cc4)C4CNC4)C[C@H]2CCC(=O)N13.O=CO,-,resazurin,MIC,-,-,<0.5 µM
COC1CCCCC1OC1CCCCC1C,-,-,MIC,-,-,>0.11 µg/mL
CN(C)c1ccc(C2CC(c3ccccc3)=NN2C(=O)c2ccc(O)cc2)cc1,H37Ra,visual reading,MBC,-,-,519 µM
C[n+]1c(C=Cc2coc3ccc(Cl)cc3c2=O)sc2ccccc21,H37Rv,-,MIC,-,-,250 µM
Cc1cc(O)c2c(c1)C(=O)C(c1c(C)cc3c(c1O)C(=O)C=CC3=O)=CC2=O,H37Rv,-,MIC,-,-,100 µg/mL
O=C(c1ccc(Oc2ccc(Cl)cc2)cc1)C(Cl)Cl,H37Rv,-,MIC,-,-,6.25 µg/mL
CCOc1ccc2cc(-n3nncc3COc3nc(-c4ccccn4)sc3C(=O)O)c(=O)oc2c1,H37Rv,resazurin,MIC,-,-,12.72 µM
O=C(CCl)c1ccc(Cc2ccccc2)cc1,H37Rv,-,MIC,-,-,25 µg/mL
O=C(c1ccc(O)cc1)N1N=C(c2ccccc2)CC1c1ccc(Cl)cc1,H37Ra,MTT,MIC,-,-,66 µM
CC1COC(c2ccccn2)=N1,H37Rv,BACTEC,MIC bound,-,-,>12.5 µg/mL
O=c1c(C=Cc2sc3ccccc3[n+]2Cc2ccc(F)cc2)coc2ccccc12,H37Rv,-,MIC,-,-,250 µM
NNC(=O)c1ccncc1,H37Ra,visual reading,MBC,-,-,5 µM
CC(C)(C)O/N=C/c1cc(NC(=S)c2ccccc2)ccc1Cl,H37Rv,BACTEC,inhibition,-,12.5 µg/mL,99%
COC1CCCCC1OC1CCCCC1C(=O)O,-,-,MIC,-,-,1 µg/mL
CN[C@@H]1[C@H](O)[C@H](NC)[C@H]2O[C@@]3(O)[C@H](NC(=O)c4ccc(F)cc4)C[C@@H](C)C[C@H]3O[C@@H]2[C@H]1O,H37Rv,broth dilution,MIC,-,-,50 µg/mL
C=C1C(=O)C23C(O)CC4(C)C5CCCC4(C(O)OC5)C2C(OC(C)=O)CC1C3O,H37Rv,BACTEC,inhibition,-,12.5 µg/mL,14%
CC[C@@H](/C=C/[C@@H](C)[C@H]1CCC2C34C=CC5(C[C@@H](O)CC[C@]5(C)C3CC[C@@]21C)OO4)C(C)C,H37Rv (ATCC 27294),-,MIC,-,-,2 µg/mL
CC(C)[C@H]1CO[C@]23CC[C@H](N(Cc4ccc(C(F)(F)F)cc4)C4CCN(C(=O)OC(C)(C)C)CC4)C[C@H]2CCC(=O)N13,-,resazurin,MIC,-,-,<0.5 µM
CC1(C)CC[C@]2(C(=O)O)CCC3C(=CCC4[C@@]3(C)CCC3C(C)(C)[C@H](O)CC[C@@]34C)C2C1,H37Rv (ATCC 27294),-,MIC,-,-,16 µg/mL
NCC[C@H](O)C(=O)N[C@@H]1C[C@H](N)[C@@H](O[C@H]2O[C@H](CN)[C@@H](O)[C@H](O)[C@H]2O)[C@H](O)[C@H]1O[C@H]1O[C@H](CO)[C@@H](O)[C@H](N)[C@H]1O,-,-,MIC,-,-,1 µg/mL
S=c1nc(-c2nc(=S)[nH]c3c2CCCCC3)c2c([nH]1)CCCCC2,H37Rv,BACTEC,MIC bound,-,-,>12.5 µg/mL
COc1ccc(CC2NCCc3cc(OC)c(O)cc32)cc1,-,-,MIC,-,-,>0.2 µg/mL
CCOc1ccc2cc(-n3nncc3COc3nc(-c4ccncc4)sc3C(=O)OC)c(=O)oc2c1,H37Rv,resazurin,MIC,-,-,24.72 µM
CO[C@H]1/C=C/O[C@@]2(C)Oc3c(C)c(O)c4c(O)c(c5[nH]c(-c6ccccc6)nc5c4c3C2=O)NC(=O)/C(C)=C\C=C\[C@H](C)[C@H](O)[C@@H](C)[C@@H](O)[C@@H](C)[C@H](OC(C)=O)[C@@H]1C,H37Rv,-,MIC,VERO,-,0.2 µg/mL
CC1COc2c(N3CCN(C)CC3)c(F)cc3c(=O)c(C(=O)O)cn1c23,H37Rv,resazurin,MIC,-,-,2.16 µM
CO[C@@H]1[C@@H](OC(=O)c2ccc(C)[nH]2)[C@@H](O)C(Oc2ccc3c(O)c(NC(=O)c4c[nH]c(C(=O)Nc5c(O)c6ccc(OC7OC(C)(C)[C@H](OC)[C@@H](OC(=O)c8ccc(C)[nH]8)[C@H]7O)c(C)c6oc5=O)c4C)c(=O)oc3c2C)OC1(C)C,KM-R,-,MIC,-,-,12.8 µg/mL
O=c1c(C=Cc2sc3ccccc3[n+]2Cc2ccc(F)cc2)coc2ccc(Cl)cc12,H37Rv,-,MIC,-,-,500 µM
NNC(=O)c1ccncc1,Isolate UT2883 (katG S315T mutation),-,MIC,-,-,8 µg/mL
CC[C@H](CO)NCC[C@H]1O[C@H](O[C@H]2O[C@H](CCN[C@H](CC)CO)[C@@H](O)[C@H](O)[C@H]2O)[C@H](O)[C@@H](O)[C@@H]1O,H37Ra,-,MIC,-,-,>128 µg/mL
COc1cc(C)c2sc3ccccc3c(=O)c2c1NCCN(C)C.O=C(O)/C=C/C(=O)O,H37Rv,BACTEC,MIC bound,-,-,≤12.5 µg/mL
CC1CCC(C)N1NNC(=O)c1ccncc1,BCG,-,MIC,-,-,10 µg/mL
Nc1cc(=O)[nH][nH]1,H37Rv,BACTEC,inhibition,-,12.5 µg/mL,-4%
CC(C)[C@H]1CO[C@]23CC[C@H](N(Cc4ccc(C(F)(F)F)cc4)C4COC4)C[C@H]2CCC(=O)N13,-,resazurin,MIC,-,-,<0.5 µM
CNC1Cc2c[nH]c3cccc(c23)C12C=C(C)C(=O)O2,H37Rv,BACTEC,MIC bound,-,-,>12.8 µg/mL
CN(C)c1ccc(C2CC(c3ccccc3)=NN2C(=S)Nc2ccccc2)cc1,H37Ra,MTT,MIC,-,-,>500 µM
CCC(CO)NC[C@@H]1N[C@H](CO)[C@@H](O)[C@@H]1O,H37Ra,-,MIC,-,-,>128 µg/mL
COCC(=O)N1CC(N(Cc2ccc(C(F)(F)F)cc2)[C@H]2CC[C@]34OC[C@H](C(C)C)N3C(=O)CC[C@@H]4C2)C1,-,resazurin,MIC,-,-,0.5–5 µM
C=C[C@]1(C)CC=C2C(CCC3[C@](C)(C(=O)O)CCC[C@@]23C)C1,H37Rv (ATCC 27294),-,MIC,-,-,128 µg/mL
C=CCC1(C(C)C(OC(C)=O)c2ccc3c(c2)OCO3)CC(OC)C=CC1=O,H37Rv,BACTEC,inhibition,-,12.5 µg/mL,17%
CC[C@@H](CO)NCC[C@H]1O[C@H](O[C@H]2O[C@H](CCN[C@@H](CC)CO)[C@@H](O)[C@H](O)[C@H]2O)[C@H](O)[C@@H](O)[C@@H]1O,H37Ra,-,MIC,-,-,>128 µg/mL
CN[C@@H]1[C@H](O)[C@H](NC)[C@H]2O[C@@]3(O)C(=O)C[C@@H](C)O[C@H]3O[C@@H]2[C@H]1O,H37Rv-HL-14,broth dilution,MIC,-,-,>200 µg/mL
CCCCc1c(O)c(N=NC(=O)C[n+]2ccccc2)c2ccccc2c1O,H37Rv,BACTEC,MIC bound,-,-,>12.5 µg/mL
CCCC/C=C/CNNC(=O)c1cccs1,BCG,-,MIC,-,-,3 µg/mL
CC(C)[C@H]1CO[C@]23CC[C@H](N(Cc4ccc(C(F)(F)F)cc4)CC4CCCCN4)C[C@H]2CCC(=O)N13,-,resazurin,MIC,-,-,<0.5 µM
CCc1nc2ccccc2n1CCCCNc1ccc(-c2ccccn2)cc1,H37Rv,turbidity / fluorescence,MIC99,-,-,0.8 µM
CN[C@@H]1[C@H](O)[C@H](NC)[C@H]2O[C@@]3(O)[C@H](NC(=O)Cc4ccncc4)C[C@@H](C)C[C@H]3O[C@@H]2[C@H]1O,H37Rv,broth dilution,MIC,-,-,100 µg/mL
COc1ccc2c(c1)CC(CN1CCC3(CC1)C(=O)NCN3c1ccccc1)O2,H37Rv,BACTEC,MIC bound,-,-,>12.5 µg/mL
NNC(=O)c1ccncc1,-,-,MIC,-,-,0.02 µg/mL
O=c1c(C=Cc2sc3ccccc3[n+]2Cc2ccccc2)coc2ccccc12,H37Rv,-,MIC,-,-,250 µM
CCCCCCCCCCCC(=O)NNC(=O)c1ccncc1,BCG,-,MIC,-,-,0.05 µg/mL
CC1(O)Nc2nc3nc[nH]c3c(=O)n2C1O,H37Rv,resazurin,MIC bound,-,-,>6.25 µg/mL
CC(C)[C@H]1CO[C@]23CC[C@H](N(Cc4ccc(C(F)(F)F)cc4)CC4CCCNC4)C[C@H]2CCC(=O)N13,-,resazurin,MIC,-,-,<0.5 µM
CN[C@@H]1[C@H](O[C@H]2[C@H](O[C@H]3[C@H](O)[C@@H](O)[C@H](N=C(N)N)[C@@H](O)[C@@H]3N=C(N)N)O[C@@H](C)[C@]2(O)C=O)O[C@@H](CO)[C@H](O)[C@H]1O,ATCC 35820,broth dilution,MIC,-,-,>200 µg/mL
COC(=O)C(=O)NNc1ccc([N+](=O)[O-])cc1,BCG,-,MIC,-,-,0.03 µg/mL
O=C(c1ccc(Cc2ccccc2)cc1)C(Cl)Cl,H37Rv,-,MIC,-,-,12.5 µg/mL
CC[C@@H](CO)NCCN[C@@H](CC)CO,-,-,MIC,-,-,1.5 µg/mL
CC(C)[C@H]1CO[C@]23CC[C@H](N(Cc4ccc(C(F)(F)F)cc4)C4CN(CCF)C4)C[C@H]2CCC(=O)N13,-,resazurin,MIC,-,-,<0.5 µM
c1ccc(Oc2cccc3ncccc23)cc1,-,-,MIC,-,-,>0.06 µg/mL
O=C(O)c1sc(-c2ccccn2)nc1OCc1cnnn1-c1cc2ccc(O)cc2oc1=O,H37Rv,resazurin,MIC,-,-,26.97 µM
CC(=O)Nc1ccc(/C=N/NC(N)=S)cc1,-,-,MIC,-,-,0.4 µg/mL
CC1=NC(=O)CNN1C1=NNC2(C(=O)N1)c1ccccc1-c1ccccc12,H37Rv,BACTEC,MIC bound,-,-,>12.5 µg/mL
CC[C@H](CC[C@@H](C)[C@H]1CC[C@H]2[C@@H]3CC=C4C[C@@H](O)CC[C@]4(C)[C@H]3CC[C@]12C)C(C)C,H37Rv (ATCC 27294),-,MIC,-,-,>128 µg/mL
O=C(c1ccc(Oc2ccc(C(=O)C(Cl)Cl)cc2)cc1)C(Cl)Cl,H37Rv,-,MIC,-,-,1.56 µg/mL
COc1c(-c2ccccc2)nc2ccc(Oc3ccccc3)nn12,H37Rv,BACTEC,MIC bound,-,-,≤12.5 µg/mL
COc1ccccc1C1CC(c2ccccc2)=NN1C(=S)Nc1ccccc1,H37Ra,visual reading,MBC,-,-,>517 µM
CCCC(=O)OCc1cc(=O)n(C)c2c3c4c(cc12)c(C)cc(=O)n4CO3,PZA-R,-,MIC,-,-,0.2 µg/mL
CCN(CC)CNc1ccc(/C=N/NC(=O)c2ccncc2)cc1,BCG,-,MIC,-,-,0.08 µg/mL
COc1cc(/C=C2/SC(=O)N(C)C2=O)ccc1O,H37Rv,BACTEC,MIC bound,-,-,>12.5 µg/mL
O=C(NNCC(NNC(=O)c1ccncc1)C(O)C(O)C(O)CO)c1ccncc1,BCG,-,MIC,-,-,0.04 µg/mL
C=CC1C(C[C@@H]2c3cc(O)c(O)cc3CCN2C(C)=O)C(C(=O)OC)=CO[C@H]1OC1OC(CO)C(O)C(O)C1O,H37Rv,BACTEC,inhibition,-,12.5 µg/mL,0%
CC[C@@H](CC[C@@H](C)[C@H]1CCC2C3C[C@@H](O)C4=CC(=O)CC[C@]4(C)C3CC[C@@]21C)C(C)C,H37Rv (ATCC 27294),-,MIC,-,-,2 µg/mL
COC(=O)c1nc(N)[nH]c(=O)c1CCCCCc1c(C(=O)OC)nc(N)[nH]c1=O,H37Rv,BACTEC,MIC bound,-,-,>12.5 µg/mL
C=C[C@]1(C)CC=C2C(CCC3[C@](C)(CO)CCC[C@@]23C)C1,H37Rv (ATCC 27294),-,MIC,-,-,16 µg/mL
Nc1ccc2cc(-n3nncc3COc3nc(-c4ccccc4)sc3C(=O)O)c(=O)oc2c1,H37Rv,resazurin,MIC,-,-,27.08 µM
O=C(c1ccc(O)cc1)N1N=C(c2ccccc2)CC1c1ccccc1Cl,H37Ra,MTT,MIC,-,-,66 µM
C[C@@H]1CC[C@]2(C(=O)O)CCC3C(=CCC4[C@@]3(C)CCC3C(C)(C)[C@H](O)CC[C@@]34C)C2[C@H]1C,H37Rv (ATCC 27294),-,MIC,-,-,8 µg/mL